Test results from article PMC7290210 (Infection, Genetics and Evolution, 2020).

Molecular target: SARS-CoV2 S2 ECD (Severe acute respiratory syndrome coronavirus 2, UniProt P0DTC2)
Type: binding, SARS-CoV-2
Conditions: pH 5.5

## Glycyrrhizic acid
  Kd: 2.4 mM
